Experimental findings from article PMC12578633, “Cross-neutralizing and potent human monoclonal antibodies against historical and emerging H5Nx influenza viruses” (2025) are described below.

As for “H5 A/Victoria/149/2024 haemagglutinin ectodomain, soluble trimer”, the Kd (usually the free concentration of one partner at which half of the binding sites on the other are occupied at equilibrium, for simple one-to-one binding) is 6.01 nM in the assay with 310-12D03 Fab (human), 15.9 nM with 310-1H02 Fab (human), below 0.0537 nM in the assay with 326-289.74 Fab (human) and 0.209 nM in the assay with 326-366.26 Fab (human). In addition, the koff (usually the rate constant with which the complex falls apart) in the assay with 310-12D03 Fab (human) was 0.000365 s⁻¹; in the assay with 310-1H02 Fab (human), 0.000884 s⁻¹; in the assay with 326-289.74 Fab (human) it was below 1e-05 s⁻¹; with 326-366.26 Fab (human) it was 3.04e-05 s⁻¹. Also, the kon (as a rule, the rate constant with which the complex forms) with 310-12D03 Fab (human) turned out to be 60700 M⁻¹ s⁻¹; in the assay with 310-1H02 Fab (human), 55400 M⁻¹ s⁻¹; in the assay with 326-289.74 Fab (human) it was 186000 M⁻¹ s⁻¹; in the assay with 326-366.26 Fab (human), 146000 M⁻¹ s⁻¹.
“H5 A/Sichuan/26221/2014 haemagglutinin ectodomain, soluble trimer”: the Kd with 310-12D03 Fab (human) is 19.2 nM; with 310-1H02 Fab (human), 36.9 nM; with 310-7D11 Fab (human) it was 50.4 nM; with 326-289.74 Fab (human), below 0.0734 nM; in the assay with 326-366.26 Fab (human), 0.576 nM. The koff is 0.00482 s⁻¹ with 310-12D03 Fab (human); 0.00237 s⁻¹ with 310-1H02 Fab (human); 0.00386 s⁻¹ in the assay with 310-7D11 Fab (human); below 1e-05 s⁻¹ with 326-289.74 Fab (human); 0.000131 s⁻¹ with 326-366.26 Fab (human). The kon with 310-12D03 Fab (human) was 251000 M⁻¹ s⁻¹; in the assay with 310-1H02 Fab (human), 64200 M⁻¹ s⁻¹; with 310-7D11 Fab (human), 76600 M⁻¹ s⁻¹; in the assay with 326-289.74 Fab (human) it was 136000 M⁻¹ s⁻¹; in the assay with 326-366.26 Fab (human), 227000 M⁻¹ s⁻¹.
Regarding “H5 A/Cambodia/2302009/2023 haemagglutinin ectodomain, soluble trimer”, the Kd came to 14.2 nM with 310-12D03 Fab (human); 3.89 nM with 310-1H02 Fab (human); 0.301 nM with 310-7D11 Fab (human); 1.21 nM with 326-289.74 Fab (human); 0.332 nM in the assay with 326-366.26 Fab (human). Further, the koff with 310-12D03 Fab (human) is 0.000449 s⁻¹; with 310-1H02 Fab (human) it was 0.000144 s⁻¹; in the assay with 310-7D11 Fab (human) it was 3.95e-05 s⁻¹; in the assay with 326-289.74 Fab (human) it was 3.02e-05 s⁻¹; with 326-366.26 Fab (human) it was 4.6e-05 s⁻¹. In addition, the kon with 310-12D03 Fab (human) was 31500 M⁻¹ s⁻¹; with 310-1H02 Fab (human) it was 37100 M⁻¹ s⁻¹; in the assay with 310-7D11 Fab (human) it was 131000 M⁻¹ s⁻¹; with 326-289.74 Fab (human) it was 25000 M⁻¹ s⁻¹; in the assay with 326-366.26 Fab (human) it was 139000 M⁻¹ s⁻¹.
“H5 A/Indonesia/05/2005 haemagglutinin ectodomain, soluble trimer”: the Kd with 310-12D03 Fab (human) is 0.3 nM; with 310-1H02 Fab (human), 1.4 nM; with 310-7D11 Fab (human), below 0.105 nM; in the assay with 326-289.74 Fab (human) it was 0.508 nM; with 326-366.26 Fab (human) it was 0.109 nM. Besides, the koff with 310-12D03 Fab (human) was 4.81e-05 s⁻¹; in the assay with 310-1H02 Fab (human), 0.00011 s⁻¹; with 310-7D11 Fab (human), below 1e-05 s⁻¹; in the assay with 326-289.74 Fab (human), 1.41e-05 s⁻¹; with 326-366.26 Fab (human), 1.62e-05 s⁻¹. Also, the kon with 310-12D03 Fab (human) turned out to be 160000 M⁻¹ s⁻¹; with 310-1H02 Fab (human), 78600 M⁻¹ s⁻¹; in the assay with 310-7D11 Fab (human), 95500 M⁻¹ s⁻¹; with 326-289.74 Fab (human) it was 27700 M⁻¹ s⁻¹; with 326-366.26 Fab (human), 148000 M⁻¹ s⁻¹.
In the case of “H5 A/Vietnam/1194/2004 haemagglutinin ectodomain, soluble trimer”, the Kd with 310-7D11 Fab (human) is below 0.126 nM; with 326-289.74 Fab (human) it was 3.25 nM; with 326-366.26 Fab (human), below 0.0767 nM. Besides, the figures for the koff in the assay with 310-7D11 Fab (human), with 326-289.74 Fab (human) and with 326-366.26 Fab (human) were below 1e-05 s⁻¹, 6.81e-05 s⁻¹ and below 1e-05 s⁻¹, respectively. Besides, the kon in the assay with 310-7D11 Fab (human) was determined as 79100 M⁻¹ s⁻¹; with 326-289.74 Fab (human), 20900 M⁻¹ s⁻¹; in the assay with 326-366.26 Fab (human), 130000 M⁻¹ s⁻¹.
Regarding “H5 A/Texas/37/2024 haemagglutinin ectodomain, soluble trimer”, in the assay with 310-1H02 Fab (human), the Kd turned out to be 2.14 nM, the koff turned out to be 0.000131 s⁻¹ and the kon stood at 61000 M⁻¹ s⁻¹. Moreover, in the assay with 310-7D11 Fab (human), the Kd came out at 0.322 nM, the koff is 3.3e-05 s⁻¹ and the kon amounted to 102000 M⁻¹ s⁻¹.
